PubChem BioAssay AID504761 – Drosophila RNAi Screening Center – 2011
The deposit covers about 22,000 reagents; this is an unselected part of those that have a named target and a result. Of all reagents, 116 (0.52%) are marked active. 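Calls depend on retest data that are not deposited; infection was ranked per plate without normalising between plates; the unit of the infection score is not given.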 A plus sign joins genes that one reagent is predicted to hit. Not all columns of the deposit are shown. Not stated in the record: the amount of reagent, the time to read-out.

Screen: 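Insect host genes that dengue virus relies on to spread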 (primary screen)
Cells: D.Mel-2 cells from Drosophila
Reagents: long dsRNA against Drosophila genes
Conditions: infection with dengue virus type 2; dose and infection time not stated
Measurement: 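Cells stained for dengue envelope protein and imaged; percent of infected cells per well on duplicate plates, ranked by infection, with stained nuclei counted for cell number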
Scale: infection score: higher = more virus-infected cells
Call rule: 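Very low infection ranking in both replicate wells (chance probability at most 0.065), then a retest showing infection dropped 1.5-fold or more at p below 0.05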
Calls: active = confirmed: knock-down lowers infection; inactive = not picked or not confirmed

| Gene | DRSC id | infection score, replicate 1 | infection score, replicate 2 | activity call |
| --- | --- | --- | --- | --- |
| stum (GeneID 37473) | DRSC04268 | 1.55 | 2.49 | inactive |
| stum (GeneID 37473) | DRSC04270 | 3.65 | 5.19 | inactive |
| CG11929 (GeneID 33668) | DRSC00339 | 5.46 | 7.14 | inactive |
| eIF2Bdelta (GeneID 37706) | DRSC04058 | 29.3 | 18.1 | inactive |
| t-cup (GeneID 318986) | DRSC01254 | 4.72 | 3.59 | inactive |
| t-cup (GeneID 318986) | DRSC27514 | 7.9 | 3.44 | inactive |
| Klp10A (GeneID 32049) | DRSC19601 | 5.52 | 5.24 | inactive |
| Klp10A (GeneID 32049) | DRSC24185 | 2.01 | 3.64 | inactive |
| Dis3 (GeneID 42900) | DRSC16034 | 18.3 | 8.3 | inactive |
| CG3748 (GeneID 34252) | DRSC02716 | 2.75 | 6.05 | inactive |
| CG3748 (GeneID 34252) | DRSC29984 | 11.2 | 8.35 | inactive |
| Pex5 (GeneID 31141) | DRSC18552 | 5.25 | 17.2 | inactive |
| Pex5 (GeneID 31141) | DRSC26136 | 2.12 | 2.14 | inactive |
| Rrp40 (GeneID 319033) | DRSC00074 | 13.4 | 3.67 | inactive |
| wds (GeneID 53428) | DRSC18852 | 3.79 | 4.72 | inactive |
| Ugt316A1 (GeneID 40079) | DRSC10376 | 5.5 | 9.03 | inactive |
| CG7849 (GeneID 35537) | DRSC04895 | 1.35 | 8.2 | inactive |
| CG7849 (GeneID 35537) | DRSC26457 | 3.6 | 1.25 | inactive |
| CG18577 (GeneID 41337) | DRSC15352 | 2.51 | 11.6 | inactive |
| Gr64d + Gr64e | DRSC08446 | 2.49 | 30.2 | inactive |
| CG5172 (GeneID 32711) | DRSC19936 | 3.26 | 4.31 | inactive |
| CG5172 (GeneID 32711) | DRSC23493 | 8.26 | 7.66 | inactive |
| amon (GeneID 43215) | DRSC13784 | 2.65 | 1.35 | inactive |
| amon (GeneID 43215) | DRSC16900 | – | 6.85 | inactive |
| Mms19 (GeneID 40626) | DRSC12188 | 2.59 | 13.4 | inactive |
| Mms19 (GeneID 40626) | DRSC27172 | 8.31 | 25.4 | inactive |
| CG32221 (GeneID 317924) | DRSC09638 | 5.43 | 1.89 | inactive |
| CG17202 (GeneID 41526) | DRSC23073 | 6.13 | 16.1 | inactive |
| His1:CG33816 + His1:CG33828 + His1:CG33819 + 21 more | DRSC21266 | 1.28 | 0.61 | inactive |
| CG11099 (GeneID 37282) | DRSC06034 | 2.98 | 2.78 | inactive |
| CG1138 (GeneID 40805) | DRSC12530 | 8.65 | 25.4 | inactive |
| CG7191 (GeneID 34058) | DRSC03022 | 3.34 | 5.47 | inactive |
| CG7191 (GeneID 34058) | DRSC26094 | 13.4 | 5.57 | inactive |
| CG13471 (GeneID 39604) | DRSC10015 | 1.37 | 1.29 | inactive |
| CG14073 (GeneID 40046) | DRSC10078 | 5.77 | 1.21 | inactive |
| CG14073 (GeneID 40046) | DRSC27001 | 4.26 | 4.7 | inactive |
| Oscillin (GeneID 33783) | DRSC03001 | 2.09 | 1.86 | inactive |
| Oscillin (GeneID 33783) | DRSC29150 | 11.3 | 11.1 | inactive |
| ea (GeneID 41858) | DRSC16939 | 14 | 1.6 | inactive |
| ea (GeneID 41858) | DRSC25595 | 2.94 | 4.19 | inactive |
| CG9312 (GeneID 41686) | DRSC16471 | 11.8 | 15.4 | inactive |
| Jhbp6 (GeneID 40479) | DRSC11714 | 7.97 | 13.3 | inactive |
| Jhbp6 (GeneID 40479) | DRSC26892 | 4.1 | 2.89 | inactive |
| sni (GeneID 31761) | DRSC17770 | 2.34 | 1.17 | inactive |
| sni (GeneID 31761) | DRSC25897 | 1.52 | 4.57 | inactive |
| CG31663 (GeneID 33363) | DRSC00078 | 0.95 | 0.73 | inactive |
| CG31663 (GeneID 33363) | DRSC00389 | 19.2 | 17.9 | inactive |
| CG31663 (GeneID 33363) | DRSC00390 | 12.4 | 24.4 | inactive |
| CG31663 (GeneID 33363) | DRSC00393 | 5.39 | 14.8 | inactive |
| aux (GeneID 40527) | DRSC12161 | 15 | 11.4 | inactive |
| aux (GeneID 40527) | DRSC28178 | 13.7 | 6.87 | inactive |
| CG8675 (GeneID 32716) | DRSC20117 | 2.04 | 1.27 | inactive |
| CG8675 (GeneID 32716) | DRSC27658 | 26.6 | 6.13 | inactive |
| CG30355 (GeneID 246561) | DRSC21958 | 19.6 | 0.56 | inactive |
| CG5265 (GeneID 42074) | DRSC15756 | 5.43 | 17.8 | inactive |
| Cys (GeneID 41767) | DRSC16637 | 5.98 | 9.09 | inactive |
| Cys (GeneID 41767) | DRSC27796 | 10.6 | 9.23 | inactive |
| CG12432 (retired record) (GeneID 32730) | DRSC19455 | 10.5 | 5.02 | inactive |
| CG12432 (retired record) (GeneID 32730) | DRSC25232 | 9.26 | 4.73 | inactive |

Sorted by “infection score, replicate 2” (descending): 6 of the entries above
| Gene | DRSC id | infection score, replicate 1 | infection score, replicate 2 | activity call |
| --- | --- | --- | --- | --- |
| eIF2Bdelta (GeneID 37706) | DRSC04058 | 29.3 | 18.1 | inactive |
| Dis3 (GeneID 42900) | DRSC16034 | 18.3 | 8.3 | inactive |
| Klp10A (GeneID 32049) | DRSC19601 | 5.52 | 5.24 | inactive |
| Klp10A (GeneID 32049) | DRSC24185 | 2.01 | 3.64 | inactive |
| t-cup (GeneID 318986) | DRSC01254 | 4.72 | 3.59 | inactive |
| t-cup (GeneID 318986) | DRSC27514 | 7.9 | 3.44 | inactive |
